Pooled drug test results. Numbers come from NIAID ChemDB, via PubChem.

All rows: toxicity to cultured cells; cells: CEM; read-out: CC50

Blank or dashed fields: not listed here.

structure | read by | result
C1CN(CC2CC2)C2(C1)C1CC3CC(C1)CC2C3 | - | >200 µg/mL
NC(N)=NC(=O)c1ccc(N2CCCCCC2)nc1 | ATP / luminescence | 128 µM
C=CCN(CC(=O)N[C@H](C(=O)N[C@H](C(=O)OC)C(C)C)[C@@H](C)CC)C(=O)[C@@H](N)Cc1ccccc1 | - | >100 µg/mL
OC[C@H]1CC(n2cnc3c(NC4CC4)ncnc32)C[C@@H]1CO | - | >200 µg/mL
Nc1ccn([C@H]2O[C@@H](CO)C=C2F)c(=O)n1 | - | >100 µM
COc1ccc(/C=N/N=C(\N)NO)c(Cl)c1O.Cc1ccc(S(=O)(=O)O)cc1 | - | 19 µg/mL
C=CCNCC(=O)N[C@H](C(=O)N[C@H](C(=O)OC)C(C)C)[C@@H](C)CC | - | >66.7 µg/mL
OC[C@H]1O[C@@H](n2c(Br)nc3cc(Cl)c(Cl)cc32)[C@H](O)[C@@H]1O | - | 35–72 µM
CC(C)CCC[C@@H](C)[C@H]1CC[C@H]2[C@@H]3CC[C@H]4C[C@@H](CCC=C(c5cc(Br)c(O)c(C(=O)O)c5)c5cc(Br)c(O)c(C(=O)O)c5)CC[C@]4(C)[C@H]3CC[C@]12C | - | >280 µM
CN(C)C1CC12C1CC3CC(C1)CC2C3 | - | >200 µg/mL
Nc1ccn([C@H]2S[C@@H](CO)C=C2F)c(=O)n1 | - | >100 µM
CCCCCC=C(c1cc(Br)cc(C(=O)O)c1OC)c1cc(Br)cc(C(=O)O)c1OC | - | 175 µM
CCCC1(Cc2ccc3ccccc3c2)CC(O)=C(Sc2cc(C)ccc2C)C(=O)O1 | - | 40.1 µM
COc1c(Cl)cc(C(=CCC[C@H]2CC[C@@]3(C)[C@@H](CC[C@@H]4[C@@H]3CC[C@]3(C)[C@@H]([C@H](C)CCCC(C)C)CC[C@@H]43)C2)c2cc(Cl)c(OC)c(C(=O)O)c2)cc1C(=O)O | - | >300 µM
Nc1ccn([C@H]2C=C(F)[C@@H](CO)O2)c(=O)n1 | - | >100 µM
O=C(O)CCC[C@H](NC(=O)c1ccccc1SSc1ccccc1C(=O)N[C@@H](CCCC(=O)O)C(=O)O)C(=O)O | - | >100 µM
COC(=O)c1cc(C(=CCCBr)c2cc(Cl)c(OC)c(C(=O)OC)c2)cc(Cl)c1OC | - | 15.2 µM
CC[C@H](C)[C@H](NC(=O)C(C)N(C(=O)[C@H](Cc1ccccc1)NC(=O)[C@H](C)NC(=O)OC(C)(C)C)C(Cl)CCl)C(=O)N[C@H](C(=O)OC)C(C)C | - | >100 µg/mL
Cc1ccc(S(=O)(=O)O)cc1.N/C(=N\N=C\c1ccc(O)c(O)c1)NO | - | 43 µg/mL
COC(=O)[C@H](C)NP(=O)(OC[C@H]1C/C1=C/n1cnc2c(OC)nc(N)nc21)Oc1ccccc1 | - | 4.6 µM
Nc1nc2c(ncn2COC(CO)CO)c(=O)[nH]1 | - | 35–72 µM
C=CCN(CC(=O)N[C@H](C(=O)N[C@H](C(=O)OC)C(C)C)[C@@H](C)CC)C(=O)[C@H](Cc1ccccc1)NC(=O)OC(C)(C)C | - | >100 µg/mL
O=c1ccn([C@@H]2C[C@H](CO)C[C@H]2CO)c(=O)[nH]1 | - | >200 µg/mL
CC[C@H](C)[C@H](NC(=O)CN(CC(Br)CBr)C(=O)[C@H](Cc1ccccc1)NC(=O)OC(C)(C)C)C(=O)N[C@H](C(=O)OC)C(C)C | - | 42.51 µg/mL
Cc1ccc(S(=O)(=O)O)cc1.N/C(=N\N=C\c1ccccc1)NO | - | 35 µg/mL
O=C(O)CC[C@H](Cc1ccccc1)NC(=O)c1ccccc1SSc1ccccc1C(=O)N[C@H](CCC(=O)O)Cc1ccccc1 | - | 67 µM
CC(C)CCC[C@@H](C)[C@H]1CC[C@H]2[C@@H]3CC[C@H]4C[C@@H](CCCC(c5cc(Cl)c(O)c(C(=O)O)c5)c5cc(Cl)c(O)c(C(=O)O)c5)CC[C@]4(C)[C@H]3CC[C@]12C | - | >310 µM
COC(=O)[C@H](C)NP(=O)(OCC1C/C1=C/n1cnc2c(=O)[nH]c(N)nc21)Oc1ccccc1 | - | >50 µM
O=C(O)CC(NC(=O)c1ccccc1SSc1ccccc1C(=O)NC(CC(=O)O)c1ccccc1)c1ccccc1 | - | >100 µM
COc1c(Cl)cc(C(=Cc2c(F)c(F)c(F)c(F)c2F)c2cc(Cl)c(OC)c(C(=O)O)c2)cc1C(=O)O | - | 412 µM
CCCCCCCCCC[N+](C)(C)CCCNCc1c(O)cc2c(c1O)-c1cc(ccc1O)[C@H]1NC(=O)[C@@H]3NC(=O)C4NC(=O)[C@@H](Cc5ccc(c(Cl)c5)Oc5cc3cc(c5O)Oc3ccc(cc3Cl)[C@@H](O)[C@H](NC1=O)C(=O)N[C@@H]2C(=O)O)NC(=O)[C@H](N)c1ccc(O)c(c1)Oc1cc(O)cc4c1 | - | 74 µM
COc1ccc(/C=N/N=C(\N)NO)cc1O.Cc1ccc(S(=O)(=O)O)cc1 | - | 44 µg/mL
Nc1nc(NC2CC2)c2ncn(C=C3CC3CO)c2n1 | - | >184 µM
CC(C)C(NC(=O)c1ccccc1SSc1ccccc1C(=O)NC(C(=O)O)C(C)C)C(=O)O | - | >100 µM
C[C@H](CCC=C(c1cc(Cl)c(O)c(C(=O)O)c1)c1cc(Cl)c(O)c(C(=O)O)c1)[C@H]1CC[C@H]2[C@@H]3CC[C@@H]4CC(F)(F)CC[C@]4(C)[C@H]3CC[C@]12C | - | >41 µM
CC(C)Nc1ncnc2c1ncn2C1C[C@H](CO)[C@@H](CO)C1 | - | >200 µg/mL
NC1CC12C1CC3CC(C1)CC2C3 | - | 32 µg/mL
O=C(O)CCCNC(=O)c1ccccc1SSc1ccccc1C(=O)NCCCC(=O)O | - | >100 µM
CNCC1CC12C1CC3CC(C1)CC2C3 | - | 4 µg/mL
CC(C)C[C@H](NC(=O)c1ccccc1SSc1ccccc1C(=O)N[C@@H](CC(C)C)C(=O)O)C(=O)O | - | 130 µM
CCCCCC=C(c1cc(Br)cc(C(=O)O)c1O)c1cc(Br)cc(C(=O)O)c1O | - | >21.8 µM

Lines come from different laboratories, so protocols vary. CCn is the concentration with n% toxicity to the cells. a–b is a range or a potency band.